Source: PubChem BioAssay AID504621 (Broad Institute, 2011)
This is a selection; strong and weak results do not stand in their true shares. Calls of active or inactive are those of the source.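 The calls were made as follows: active = every replicate shows inhibition above about 80%, whatever the replicate mean (limit read from the data); inconclusive = mean inhibition reaches the set limit but some replicate falls short; inactive = the rest.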

Experiment: reduced ATP signal of yeast carrying P. falciparum Hsp90 – S. cerevisiae, BacTiter-Glo luminescence, single point, set 2, antimalarial PfHsp90 inhibitor project, primary screen (AID 504621);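 also: yeast relying on Plasmodium falciparum Hsp90 in place of its own; 0% = DMSO neutral controls and 100% = 20 µM radicicol positive controls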
Details: S. cerevisiae expressing PfHsp90, growth, 48 h, at 9.4 µM, active compounds read high, yeast lacking PDR1 and PDR3 efflux regulators

SMILES | inhibition
CN(C)CCOC(=O)C(O)(c1ccccc1)C1CCCCC1 (stereo unspecified) | inactive: 0.74%
CP(=O)(Nc1ccc2c(c1)OCCO2)Oc1ccccc1 (stereo unspecified) | inactive: 11.3%
Cc1ccccc1NP(C)(=O)Nc1ccccc1C | inactive: -20.6%
CP(=O)(Nc1ccc(SC(F)(F)F)cc1)Oc1ccc(F)cc1 (stereo unspecified) | inactive: -4.11%
CCOP(C)(=S)SCC(=O)NC(C)(CC)C(=O)O (stereo unspecified) | inactive: 3.78%
O=[N+]([O-])c1cc([N+](=O)[O-])c(-c2cnn(-c3ccccc3)c2)c([N+](=O)[O-])c1 | active: 107%
Cc1nc2ccc3ccccc3c2s1.O=[N+]([O-])c1cc([N+](=O)[O-])c(O)c([N+](=O)[O-])c1 | inactive: -18.5%
O=[N+]([O-])c1cc([N+](=O)[O-])c(-n2nnc3ccccc32)c([N+](=O)[O-])c1 | inactive: -5.58%
CN1CCCCC1COC(=O)C1(O)c2ccccc2CCc2ccccc21 (stereo unspecified) | inactive: -7.69%
CCCOc1ccc(NP(C)(=O)Oc2ccc(Cl)cc2)cc1 (stereo unspecified) | inactive: -14.6%
CP(=O)(Nc1ccc(SC(F)(F)F)cc1)Oc1ccccc1 (stereo unspecified) | inactive: 15.6%
CCOC(=O)C(CC)C1=NC(C)(C)Cc2ccccc21.O=[N+]([O-])c1cc([N+](=O)[O-])c(O)c([N+](=O)[O-])c1 (stereo unspecified) | inactive: -11.9%
CC1=C2N=C(C=C3N=C(C(C)=C4[N-][C@@](C)([C@@H]5N=C1[C@](C)(CCC(=O)NC[C@@H](C)OP(=O)([O-])O[C@H]1[C@@H](O)[C@@H](n6cnc7cc(C)c(C)cc76)O[C@@H]1CO)[C@H]5CC(N)=O)[C@@](C)(CC(N)=O)[C@@H]4CCC(N)=O)[C@@](C)(CC(N)=O)[C@@H]3CCC(N)=O)C(C)(C)[C@@H]2CCC(N)=O.[C-]#N.[Co+3] | inactive: 13.6%
O=[N+]([O-])c1cc([N+](=O)[O-])c(Nc2nnnn2CCO)c([N+](=O)[O-])c1 | inactive: 7.12%
CC1=NCCc2c1[nH]c1ccccc21.O=[N+]([O-])c1cc([N+](=O)[O-])c(O)c([N+](=O)[O-])c1 | inactive: 14.5%
O=C(O)c1cccc(Nc2c([N+](=O)[O-])cc([N+](=O)[O-])cc2[N+](=O)[O-])c1 | inactive: -1.57%
Cc1cc(C)cc(OP(C)(=O)Nc2ccccn2)c1 (stereo unspecified) | inactive: -10.8%
CP(=O)(Nc1cccc(Br)c1)Oc1ccccc1 (stereo unspecified) | inactive: -14.2%
Cc1ccc(C)c(NP(C)(=O)Oc2ccccc2)c1 (stereo unspecified) | inactive: -24.7%
COc1ccccc1OP(C)(=O)Nc1cccc(Br)c1 (stereo unspecified) | inactive: 34.9%
Cc1cc(C)cc(OP(C)(=O)Nc2ccc(C)cc2C)c1 (stereo unspecified) | inactive: -15.8%

SMILES | inhibition
CCOC(=O)c1ccc(NP(C)(=O)Oc2cc(C)cc(C)c2)cc1 (stereo unspecified) | inactive: 12.7%
CCN(CC)CCCOC(=O)C(O)(c1ccccc1)c1ccccc1 | inactive: -2.47%
CCOC(=O)c1ccc(NP(C)(=O)Oc2ccccc2)cc1 (stereo unspecified) | inactive: 1.08%
Cc1ccc(NP(C)(=O)Oc2ccccc2)c(C)c1 (stereo unspecified) | inactive: 4.78%
COc1ccccc1OP(C)(=O)Nc1ccc(C)cc1 (stereo unspecified) | inactive: 3.47%
COc1ccccc1OP(C)(=O)Nc1cc(Cl)ccc1C (stereo unspecified) | inactive: -39.7%
Cc1cc(C)cc(OP(C)(N)=O)c1 (stereo unspecified) | inactive: -8.84%
O=[N+]([O-])c1cc([N+](=O)[O-])c(Nc2cccnc2)c([N+](=O)[O-])c1 | inactive: -6.1%
Cc1cccc(C)c1OP(C)(N)=O (stereo unspecified) | inactive: 22.6%
CC(C)(C)c1ccc(OP(C)(=O)Nc2ccc(SC(F)(F)F)cc2)cc1 (stereo unspecified) | inactive: -18.8%
O=[N+]([O-])c1ccc2c(c1)C=Nc1ccccc1O2 | inactive: -8.37%
CP(=S)(Nn1cnnc1)Oc1ccccc1 (stereo unspecified) | inactive: -0.558%
COc1ccccc1OP(C)(=O)Nc1ccccc1 (stereo unspecified) | inactive: 19.5%
CP(=O)(Nc1ccccc1Br)Oc1ccccc1 (stereo unspecified) | inactive: -23.2%
CCOC(=O)c1ccc(NP(C)(=O)Oc2ccc(OC)cc2)cc1 (stereo unspecified) | inactive: -58.4%
CP(=O)(Nc1ccccn1)Oc1ccc(Cl)cc1 (stereo unspecified) | inactive: -8.53%
CP(=O)(Oc1ccccc1)OC(c1ccccc1)C(F)(F)F (stereo unspecified) | inactive: 0.88%
Cc1cccc(C)c1OP(C)(=O)Nc1ccc(SC(F)(F)F)cc1 (stereo unspecified) | inactive: 15.8%
CP(=O)(NC(=O)Nc1ccccc1)Oc1ccccc1 (stereo unspecified) | inactive: 12.2%
CCc1ccc(OP(C)(=O)N2CCN(c3ccc([N+](=O)[O-])cc3)CC2)cc1 (stereo unspecified) | inactive: -3.61%
